Assay [1] has as its target JUNV GP1 (Junín virus GP1 glycoprotein, residues 87 to 232) (Junín virus (JUNV), strain XJ13 …, UniProt C1K9J9). The experiment in a line: ELISA. To be noted: both partners purified. A general note: In an ELISA, binding on a coated surface is turned into a signal by an enzyme label.
Assay [2] concerns the target MACV GP1 (Machupo virus GP1 glycoprotein, residues 87 to 257) (Machupo virus (MACV)., UniProt Q6PXS3). The experiment in a line: ELISA.

B1: NAb MAC1 (full-length mouse monoclonal antibody) (antibody, V domains shown)
VH: QVQLQQSGAELVKPGASVKISCKASGYAFGSHWMNWVKQRPGKGLEWIGQIYPGDGDTNYNGKFKGKATLTADKSSSTAYMQFSSLTSEDSAVYFCARDDYGTRYYFDYWGQGTTLTVSS
VL: DIQMTQTTSSLSASLGDRVSISCRASQDINNYLNWYQQKPDGTVKLLIHYTSRLRSGVPSRFSGSGFGTDYSLTITNLEQEDIATYFCQQGKTLPLTFGAGTKLEIK
notes: also called MAb MAC1; source: HEK293F, cotransfected heavy and light chain plasmids, purified (protein G); copies: 2 + 2
B1: the figures for the binding result in assay [1] and in assay [2] were “no binding (tested: 10 μg/mL)” and “binds”, respectively.

B2: NAb JUN1 (full-length mouse monoclonal antibody) (antibody, V domains shown)
VH: LVQSVETGGGLVRPGNSLKLSCVTSGFTFSNYQMHWLRQPPGKRLEWIAVITVKSDNYGANYVESVKGRFAISRDDSKSSVYLEMNRLREEDTATYFCSRSGIYDGYYAYAMDYWGQGTSVTVSS
VL: SVVMTQSQKFMSTSVGDRVSITCKASQIVGTSVAWYQQKAGQSPKLLIYWASTRHTGVPDRFTAGGSGTDFTLTITNVQSEDLADYFCQQYATYPLTFGSGTKLELK
notes: also called JUN1 IgG; MAb JUN1; source: HEK293F, cotransfected heavy and light chain plasmids, purified (protein G); copies: 2 + 2
As for B2, the binding result in assay [1] is “binds”; in assay [2] it was “no binding (tested: 10 μg/mL)”.

B3: JUNV GP1-specific NAb OD01 (antibody, V domains shown)
VH: EVQLQQSGTVLARPGASVKMSCKASGYTFTSYWMHWIKQRPGQGLEWIGAIYPGDSDTKYNQKFKGKAKLTAVTSTSTAYMELSSLTNEDSAVYYCTRRNTLTGDYFDYWGQGTTLTVSS
VL: DIVLTQSPASLAVSLGQRATISCRASESVDDYGISFMNWFQQKPGQPPKLLIYTASSQGSGVPARFSGSGSGTDFSLNIHPMEEDDTAMYFCQQSKEVPYTFGGGTKLEIK
For the molecule B3, the binding result in assay [1] is listed as “binds”; in assay [2], “no binding (tested: 10 μg/mL)”.

(Values after article PMC9040744 (mBio, 2022).)
